# Record: PubChem BioAssay AID504761 (Drosophila RNAi Screening Center, 2011)
# Aim: 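Insect host genes that dengue virus relies on to spread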 (primary screen)
# Cell system: D.Mel-2 cells from Drosophila
# Reagent: long dsRNA against Drosophila genes
# Challenge: infection with dengue virus type 2; dose and infection time not stated
# Detection: 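Per well on two replicate plates, imaging gave the percent of cells positive for viral envelope protein, ranked by infection, and a nuclear count of cells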
# Scale: infection score: higher = more virus-infected cells; cell count: higher = more cells in the well
# Call rule: 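Very low infection ranking in both replicate wells (chance probability at most 0.065), then a retest showing infection dropped 1.5-fold or more at p below 0.05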
# Meaning of the calls: active = confirmed: knock-down lowers infection; inactive = not picked or not confirmed
# The screen tested about 22,000 reagents; below is an unselected part of those that have a named target and a result. In the full data, 116 (0.52%) are marked active. 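Calls depend on retest data that are not deposited; infection was ranked per plate without normalising between plates; the unit of the infection score is not given.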 The raw values are shown without normalisation. The numbers tell different reagents against one gene apart. A plus sign joins genes that one reagent is predicted to hit. No sequences are given here. Not stated in the record: the amount of reagent, the time to read-out.
Target gene,reagent no.,"infection score, replicate 1","infection score, replicate 2","cell count, replicate 1","cell count, replicate 2",Outcome
CG14285 (GeneID 42281),1,1.58,0.49,6527,6470,inactive
Cpr49Af (GeneID 36352),1,30.4,11.5,4365,6382,inactive
Cpr49Af (GeneID 36352),2,2.5,6.71,6043,5630,inactive
Fer3HCH (GeneID 32260),1,4.87,3.31,6298,6459,inactive
Fer3HCH (GeneID 32260),2,9.11,20.7,6846,6680,inactive
EbpII (GeneID 326108),1,24,51.4,6330,3593,inactive
EbpII (GeneID 326108),2,4.03,5.49,5836,4642,inactive
EbpII (GeneID 326108),3,8.26,24.2,835,6086,inactive
Pgcl (GeneID 30984),1,0.79,10.4,6581,6267,inactive
Prp4k (GeneID 38032),1,11.7,8.18,5674,6024,inactive
Prp4k (GeneID 38032),2,10.6,13.7,6272,6392,inactive
Gr10a (GeneID 117501),1,1.66,1.21,6217,6841,inactive
Gr10a (GeneID 117501),2,5.02,5.69,5972,1125,inactive
Gr10a (GeneID 117501),3,9.32,4.24,6532,6489,inactive
Obp50b + Obp50c,1,4.64,13.9,6631,3911,inactive
CG13385 (GeneID 34164),1,4.42,1.4,6408,6082,inactive
CG32225 (GeneID 317926),1,0.89,0.92,5736,6212,inactive
CG32225 (GeneID 317926),2,8.04,13.1,5959,5995,inactive
CG42324 (GeneID 38430),1,3.77,6.16,6334,6295,inactive
CG42324 (GeneID 38430),2,4.04,3.31,5688,6079,inactive
CG42324 (GeneID 38430),3,4.8,1.82,5105,6044,inactive
Npl4 (GeneID 43091),1,3.19,4.19,6459,6377,inactive
Npl4 (GeneID 43091),2,3.72,,4276,314,inactive
CG30496 (GeneID 246652),1,8.07,13.1,6602,5693,inactive
CG7970 (GeneID 38205),1,22.9,26.8,5372,5706,inactive
CG7970 (GeneID 38205),2,11.3,2.86,5813,6746,inactive
CG17929 (GeneID 41978),1,1.81,6.54,6359,5518,inactive
mRpS34 (GeneID 39809),1,1.62,4.23,5240,5695,inactive
mRpS34 (GeneID 39809),2,8.37,13.9,1924,5499,inactive
DIP-alpha (GeneID 31322),1,19.6,14.9,5174,6574,inactive
DIP-alpha (GeneID 31322),2,1.58,7.78,6014,6556,inactive
CG12123 (GeneID 31777),1,3.3,1.23,6662,6366,inactive
Polr1H (GeneID 42563),1,8.04,4.08,6107,6421,inactive
Polr1H (GeneID 42563),2,17.5,8.46,1422,5885,inactive
Chpf (GeneID 32259),1,1.22,1.58,6498,6402,inactive
Chpf (GeneID 32259),2,2.87,3.74,6545,6788,inactive
CG30287 (GeneID 246530),1,0.44,0.17,6122,5856,inactive
Patr-1 (GeneID 42058),1,2.78,4.31,6044,6262,inactive
Patr-1 (GeneID 42058),2,1.82,0.63,5985,6398,inactive
Pep (GeneID 45961),1,8.37,14.3,4431,2182,inactive
Ublcp1 (GeneID 42726),1,9.94,1.86,6487,269,inactive
Ublcp1 (GeneID 42726),2,13.1,9.7,4851,6269,inactive
CTCF (GeneID 38817),1,3.28,1.17,6312,6497,inactive
CTCF (GeneID 38817),2,14.8,21.8,2304,3621,inactive
Ack (GeneID 38489),1,0.9,2.28,5668,5569,inactive
Ack (GeneID 38489),2,10.6,34.1,5982,5143,inactive
CR42532 (GeneID 8674101),1,5.95,12.5,6251,6658,inactive
CG13097 (GeneID 34184),1,28.8,,4036,488,inactive
zfh2 (GeneID 43795),1,1.08,3.07,6403,6516,inactive
zfh2 (GeneID 43795),2,,3.03,416,6876,inactive
CG5828 (GeneID 33742),1,3.28,11.1,6218,6006,inactive
CG5828 (GeneID 33742),2,5.36,1.88,6385,5892,inactive
CG15482 (GeneID 34717),1,2.56,2.52,6379,6503,inactive
CG18135 (GeneID 40073),1,6.55,6.04,6491,7071,inactive
CG7634 (GeneID 40394),1,1.21,4.1,5889,5855,inactive
Ir56d (GeneID 37252),1,4.27,2.84,6090,6482,inactive
Ir56d (GeneID 37252),2,6.35,17.7,2851,3768,inactive
CG15543 (GeneID 43647),1,3.84,7.66,5997,6280,inactive

Entries above whose target name begins with N or n (2):
Target gene,reagent no.,"infection score, replicate 1","infection score, replicate 2","cell count, replicate 1","cell count, replicate 2",Outcome
Npl4 (GeneID 43091),1,3.19,4.19,6459,6377,inactive
Npl4 (GeneID 43091),2,3.72,,4276,314,inactive
